In the supplement of paper PMC9931576:
Human monoclonal antibodies against the spike receptor-binding domain (heavy:light variable regions). IC50 against pseudoviruses bearing the spike of naturally observed variants; lower = stronger; >10 µg/ml means not reached at the top dose. No active / inactive call. The stated detection limit is 0.0005 µg/ml; values near or below 0.001 µg/ml lie at the floor of the assay.

B1: BD56-1781 (protein)
chain 1: EVHLVESGGGLVQPGRSLRLSCAASGFPFDDYAMHWVRQAPGKGLEWVSGISWNGGVIGYADSVQGRCVISRDNAKSSLYLHMNSLRTEDTAFYYCVKDMSGGDYQHYFDHWGQGTLVTVSS
chain 2: SYVLTQAPSVSVAPGKTARITCGGNYIGSKSVHWYQQRPGQAPVLVVYDDSDRPSGIPERFSGSNSDNTATLTISRVEAGDEADYYCLVWDSSSDLYVFGTGTKVTVL
B2: BD56-1784 (protein)
chain 1: EVQLVESGGGLVQPGGSLRLSCAASAFTVNSAYMTWVRQPPGKGLEWVSLIFGASRTYYADSVKGRFTVGRDKNTLFLQMNNLRVEDSAVYYCARWPLSSGLGMGDYWGQGTLVTVSS
chain 2: QSVLTQPPSASGTPGQRVTISCSGSNSNIGTNTVNWYHQVPGTAPKLIIYDNNQRPSGVPDRFSGSKSGTSASLAISGLQSEDEADYYCATWDDSLDGWVFGGGTKLTVL
B3: BD56-1790 (protein)
chain 1: EVQLLESGGGLVQPGRSLRLSCAASGFTFDDYAMHWVRQAPGKGLEWVSGITWNSGTIGYADSVMGRFIISRDNAKSSLYLQVNSLRGEDTALYYCAKDRNSGYRDYYYMDVWGKGTTVTVSS
chain 2: SYVLTQPPSVSVAPGQTARITCGGNNIGSKSVHWYQQKPGQAPVLVVYDDADRPSGIPERFSGSNSGNTATLTISRVEAGDEADYYCQVWDSNSDHVVFGGGTKLTVL
B4: BD56-1794 (protein)
chain 1: QVQLVQSGPEVKKPGSSVKVSCKASGGTFRSNSISWVRQVPGQGLEWMGRIIPTLGIGNYAQKFQGRVTIIADRSTSIAHMELSSLRSEDTAVYFCARDQGYSSSGSVYYMDVWGQGTTVSVSS
chain 2: QSVLTQPPSVSGAPGQRVTISCTGSNSNIGAGYDVHWYQHLPGTAPKLLMFVNNNRPSGVPDRFSGSKSDTSASLAISGLQAEDEADYYCQSYDSSLSDVIFGGGTKVTVL
B5: BD56-1752 (protein)
chain 1: QVQLHESGPGLVTPSKTLSLTCTVSGGSISRDYWSWIRQPPGKGLEWIGYFFHTGSNKSSSSLESRVTISIDTSKNHLSLRLTSVTAADTAVYYCARQSTGWNSWYFDLWGRGTLVSVSS
chain 2: SYVLTQSPSVSVAPGQTARITCGGNNIGRNTVHWYQKKPGQAPVVVVYDESDRPSGIPERFSGSNSGNTATLSISRVEVGDEADYYCQVWDTSRDHAVFGGGTKLTVL
B6: BD56-1758 (protein)
chain 1: EVQLVESGGGLVQPGGSLRLSCAASGFTFSVYDMHWVRQATGKGLEWVSGTGTSGDTYYADSVKGRFTVSRDNAKNSLYLQMNSLRAGDTAVYYCARVEYSRGYYWYFDLWGRGTLVTVSS
chain 2: DIQVTQSPSSLSASVGDRVTITCRASHTISSYLNWYQQKPGKAPKLLIYAASSLQSGVPSRFSGSGSGTDFSLTISSLQPEDFATYYCQQSYSAPPWTFGPGTKVEVK
B7: BD56-1771 (protein)
chain 1: EVQLVESGGGLVPPGGSLRLSCAASGFTFSNYDMHWVRQGTGKGLEWVSTIGTAGDTYYPGSVKGRFTISRENAKNSLYLQMNSLTDGDTAVYYCARAQYSSNLYPRLDAWGQGTLVTVSS
chain 2: DIQMTQSPYSLSASVGDRVTITCRASQSIRNYLNWYQQKPGKAPKLLIYAASSLQSGVPSRFSGSGSGTDFTLTISSLQPEDFATYSCQQIYSSEWTFGQGTKVEVK
B8: BD56-1769 (protein)
chain 1: QVQLVQSGAEVKKPGSSVKVSCKASGGTFNSYAISWLRQAPGQGLEWMGRIIPILGRPHYAQNFQGRVTILADKSTSTASVEVSSLKSEDTAVYYCATSGFYGDLGISKDAFDIWGRGTMVTVSS
chain 2: DIQMTQSPSTLSASVGDRVTITCRASQSINSWLAWYQQKPGKAPKLLIYDASNLESGVPSRFSGSGSGTEFTLTISSLQPDDFATYYCQQYQSYSPLTFGGGTKVEIK
B9: COV2-2828 (protein)
chain 1: EVQLVESGGGLVKPGGSLRLSCAASGFTFRDYSMNWVRQAPGKGLEWVSSISSGGSYIYYADSVKGRFTISRDNAKNSLYLQMNSLRAEDTAVYYCARGGSILWWLIDYWGQGTLVTVSS
chain 2: NFMLTQPHSVSESPGKTVTISCTGSSGSIASNYVQWYQQRPGSAPTTVIYEDNQRPSGVPDRFSGSIDSSSNSASLTISGLKTEDEADYYCQSYDSTSRVVFGGGTKLTVL
B10: BD56-1773 (protein)
chain 1: EVQLVESGGGLVQPGGSLRLSCAASGFIFSSFDMHWVRQGTGRGLEWVSAMGTSGDTYYEDSVKGRFTISRDNGNNSLYLQMNSLRAGDTAVYYCTRGVGHYHYYMDVWGKGTTVTVSS
chain 2: DIQLTQSPSSLSASVGDRVTMTCRASQSIRNYLNWYQQKPGKAPKLLIYAASSLQGGVPSRFSGSGSGTDFTLTISSLQPEDFATYYCQQSYSSPPWTFGQGTKVEFK
B11: BD56-1786 (protein)
chain 1: EVQLVESGGGLVKPGGSLRLSCAGSGFTFSNYIMNWVRQAPGKGLEWVSSISSSSTEIYYAVSVKGRFTISRDNAKRSVYLQMNSLRVEDTAVYYCARDPGAFDWASGSLDYYGMSVWGQGTTVTVSS
chain 2: QSVLTQPPSVSGAPGQRVTVSCTGSSSNIGADYAVHWYRQLPGTAPKLLIYGNTNRPSGVPDRFSGSKSGTSASLAITGLQAEDEADYYCQSFDKSLSGVVFGGGTKLTVL
B12: BD56-1793 (protein)
chain 1: EVQLVESGGGLVQPGGSLRLSCVASTFVFSSYDMHWVRQAAGKGLEWVSAIDSDGDTYYAASVKGRFTISRENAKSSLYLQMNSLRAGDAAVYYCARGPGATGYFLHWGQGTLVTVSS
chain 2: SYVLTQPPSVSVAPGETASITCGGNDLGSKTVHWYQQKPGQAPSLIIYYDSDRPSGIPERFSGSNSGKTATLTISRVEAGDEADYYCQVWENSRDPSWVFGGGTKLTVL

target: SARS-CoV-2 Omicron BA.1 spike pseudovirus; experiment: pseudovirus neutralization IC50; higher = weaker neutralization
Method: (§1)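 Single-round VSV luciferase pseudovirus mixed with antibody dilutions for 1 h and put on Huh-7 cells for about a day; IC50 from the dose curve.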

Row | Binder | pseudovirus neutralization IC50 [µg/mL]
1 | B1 | 0.0123
2 | B2 | > 10
3 | B3 | 0.167
4 | B4 | 0.656
5 | B5 | 1.53
6 | B6 | > 10
7 | B7 | > 10
8 | B8 | 3.17
9 | B9 | > 10
10 | B10 | > 10
11 | B11 | 0.181
12 | B12 | 0.937

target: SARS-CoV-2 Omicron BA.2 spike pseudovirus; experiment: as above
Method: as §1

Row | Binder | pseudovirus neutralization IC50 [µg/mL]
13 | B1 | 0.0121
14 | B2 | > 10
15 | B3 | 0.261
16 | B4 | 1.04
17 | B5 | 2.08
18 | B6 | > 10
19 | B7 | > 10
20 | B8 | 0.19
21 | B9 | > 10
22 | B10 | > 10
23 | B11 | 6.2
24 | B12 | 0.059

target: SARS-CoV-2 Omicron BA.2.75 spike pseudovirus; experiment: as above
Method: as §1

Row | Binder | pseudovirus neutralization IC50 [µg/mL]
25 | B1 | 0.00697
26 | B2 | > 10
27 | B3 | 0.081
28 | B4 | 0.289
29 | B5 | 0.995
30 | B6 | > 10
31 | B7 | > 10
32 | B8 | 0.0902
33 | B9 | > 10
34 | B10 | > 10
35 | B11 | > 10
36 | B12 | 0.0332

target: SARS-CoV-2 Omicron BA.5 spike pseudovirus; experiment: as above
Method: as §1

Row | Binder | pseudovirus neutralization IC50 [µg/mL]
37 | B1 | 0.0908
38 | B2 | > 10
39 | B3 | > 10
40 | B4 | > 10
41 | B5 | 1.75
42 | B6 | > 10
43 | B7 | > 10
44 | B8 | 0.175
45 | B9 | > 10
46 | B10 | > 10
47 | B11 | 2.57
48 | B12 | > 10

target: SARS-CoV-2 Omicron BQ.1.1 spike pseudovirus; experiment: as above
Method: as §1

Row | Binder | pseudovirus neutralization IC50 [µg/mL]
49 | B1 | > 10
50 | B2 | > 10
51 | B3 | > 10
52 | B4 | > 10
53 | B5 | > 10
54 | B6 | > 10
55 | B7 | > 10
56 | B8 | > 10
57 | B9 | > 10
58 | B10 | > 10
59 | B11 | > 10
60 | B12 | > 10

target: SARS-CoV-2 Omicron XBB spike pseudovirus; experiment: as above
Method: as §1

Row | Binder | pseudovirus neutralization IC50 [µg/mL]
61 | B1 | > 10
62 | B2 | > 10
63 | B3 | > 10
64 | B4 | > 10
65 | B5 | > 10
66 | B6 | > 10
67 | B7 | > 10
68 | B8 | > 10
69 | B9 | > 10
70 | B10 | > 10
71 | B11 | > 10
72 | B12 | 0.98

target: SARS-CoV-2 early D614G spike pseudovirus; experiment: as above
Method: as §1

Row | Binder | pseudovirus neutralization IC50 [µg/mL]
73 | B1 | 0.0348
74 | B2 | 0.702
75 | B3 | 0.144
76 | B4 | 0.373
77 | B5 | 1.96
78 | B6 | 7.94
79 | B7 | > 10
80 | B8 | 0.00103
81 | B9 | 1.52
82 | B10 | > 10
83 | B11 | 0.189
84 | B12 | 0.711
